The record followed here is patent US20190359693A1, “Binding molecules directed against influenza hemagglutinin and uses thereof” (Janssen / Centocor, published 2019).

First the molecules themselves.
B1: SD1049 (VHH)
VHH: EVQLVESGGGLVQAGGSLRLSCAASGRTLSLYSVGWFRQAPGKEREFVATIGWNSGRTFYVDSMKGRFTISRDNAKNTVYLQMNDLKVEDTAVYYCAAAKGPLRLSNQADYWGQGTQVTVSS
B2: SD1017 (VHH)
VHH: EVQLVESGGGLVQAGGSLRLSCAASGRTYAMAWFRQAPGKEREFVAHINALGTRAYYSDSVEGRFTISRDNAKNTGYLQMNSLEPEDTAVYVCAAGGQWRAAPVADAAQYDFWGQGTQVTVSS
B3: SD1048 (VHH)
VHH: EVQLVESGGGVVQPGGSLRLSCVASGRTSSMYSIGWFRQAPGKEREFVAVIGWYSGRTFYTDSMKGRFTISRDNARNTVYLQMNSLKPEDTAVYYCAAANGPLRLSNQADYWGQGTQVTVSS
B4: MD1210 (bispecific antibody)
chain: EVQLVESGGGLVQAGGSLKLSCAASGRTYAMGWFRQAPGKEREFVAHINALGTRTYYSDSVKGRFTISRDNAKNTEYLEMNNLKPEDTAVYYCTAQGQWRAAPVAVAAEYEFWGQGTQVTVSSAAAGGGGSGGGGSGGGGSGGGGSGGGGSGGGGSGGGGSEVQLVESGGGLVQPGGSLRLSCAVSISIFDIYAMDWYRQAPGKQRDLVATSFRDGSTNYADSVKGRFTISRDNAKNTLYLQMNSLKPEDTAVYLCHVSLYRDPLGVAGGMGVYWGKGALVTVSS
B5: MD1209 (VHH)
chain: EVQLVESGGGLVQAGGSLKLSCAASGRTYAMGWFRQAPGKEREFVAHINALGTRTYYSDSVKGRFTISRDNAKNTEYLEMNNLKPEDTAVYYCTAQGQWRAAPVAVAAEYEFWGQGTQVTVSSAAAGGGGSGGGGSGGGGSGGGGSGGGGSGGGGSGGGGSEVQLVESGGGLVQAGGSLKLSCAASGRTYAMGWFRQAPGKEREFVAHINALGTRTYYSDSVKGRFTISRDNAKNTEYLEMNNLKPEDTAVYYCTAQGQWRAAPVAVAAEYEFWGQGTQVTVSS
B6: SD1046 (VHH)
VHH: EVQLVESGGGLVQAGDSLRISCAASGRTLSIYSMGWFRQAPGKEREFVATIGWNSGRTFYPDSLKGRFTISRDNARNTLYLQMNNLRPEDTAVYYCAAAKGPLRLSSQADYWGQGTQVTVSS
B7: SD3067 (VHH)
VHH: EVQLVESGGGLVQPGGSLRLSCAASGRTLSIYSMGWFRQAPGKEREFVATIGWNSGRTFYPDSLKGRFTISRDNSKNTLYLQMNSLRAEDTAVYYCAAAKGPLRLSSQADYWGQGTLVTVSS
B8: SD3048 (VHH)
VHH: EVQLVESGGGLVQAGGSLRLSCAASGRTLSIYSMSWFRQAPGKEREFVSTIGWNSGRTYYADSVKGRFTISRDNARNTLYLQMNSLRAEDTAVYYCAAAKGPLRLSSQADYWGQGTQVTVSS
B9: SD3068 (VHH)
VHH: EVQLVESGGGLVQPGGSLRLSCAASGRTLSIYSMGWFRQAPGKEREFVSTIGWNSGRTFYPDSLKGRFTISRDNSKNTLYLQMNSLRAEDTAVYYCAAAKGPLRLSSQADYWGQGTLVTVSS
B10: SD3044 (VHH)
VHH: EVQLVESGGGLVQPGGSLRLSCAASGRTLSIYSMSWFRQAPGKEREFVSTIGWNSGRTYYADSVKGRFTISRDNARNTLYLQMNSLRAEDTAVYYCAAAKGPLRLSSQADYWGQGTQVTVSS
B11: SD3099 (VHH)
VHH: EVQLVESGGGLVQPGGSLRLSCAASGRTLSIYSMGWFRQAPGKEREFVATIGWNSGRTFYPDSVKGRFTISRDNSKNTLYLQMNSLRAEDTAVYYCAAAKGPLRLSSQADYWGQGTLVTVSS
B12: SD3047 (VHH)
VHH: EVQLVESGGGLVQAGGSLRLSCAASGRTLSIYSMSWFRQAPGKEREFVATIGWNSGRTYYADSVKGRFTISRDNSKNTLYLQMNSLRAEDTAVYYCAAAKGPLRLSSQADYWGQGTQVTVSS
B13: SD1036 (VHH)
VHH: EVQLVESGGGLVQAGGSLKLSCAASGRTYAMGWFRQAPGKEREFVAHINALGTRTYYSDSVKGRFTISRDNAKNTEYLEMNNLKPEDTAVYYCTAQGQWRAAPVAVAAEYEFWGQGTQVTVSS
B14: SD3028 (VHH)
VHH: EVQLLESGGGLVQAGGSLRLSCAASGRTYAMSWFRQAPGKEREFVAHINALGTRTYYADSVKGRFTISRDNSKNTLYLQMNSLRPEDTAVYYCTAQGQWRAAPVAVAAEYEFWGQGTQVTVSS
B15: SD3096 (VHH)
VHH: EVQLLESGGGLVQPGGSLRLSCAASGRTYAMGWFRQAPGKEREFVAHINALGTRTYYADSVKGRFTISRDNSKNTVYLQMNSLRPEDTAVYYCTAQGQWRAAPVAVAAEYEFWGQGTLVTVSS
B16: SD3095 (VHH)
VHH: EVQLLESGGGLVQPGGSLRLSCAASGRTYAMGWFRQAPGKEREFVAHINALGTRTYYADSVKGRFTISRDNSKNTLYLQMNSLRPEDTAVYYCTAQGQWRAAPVAVAAEYEFWGQGTLVTVSS
B17: SD3023 (VHH)
VHH: EVQLLESGGGLVQAGGSLRLSCAASGRTYAMSWFRQAPGKEREFVSHINALGTRTYYADSVKGRFTISRDNSKNTLYLQMNSLRPEDTAVYYCTAQGQWRAAPVAVAAEYEFWGQGTQVTVSS
B18: SD3024 (VHH)
VHH: EVQLLESGGGLVQPGGSLRLSCAASGRTYAMSWFRQAPGKEREFVSHINALGTRTYYADSVKGRFTISRDNSKNTLYLQMNSLRAEDTAVYYCTAQGQWRAAPVAVAAEYEFWGQGTQVTVSS
B19: SD3098 (VHH)
VHH: EVQLLESGGGLVQPGGSLRLSCAASGRTYAMGWFRQAPGKEREFVAAINALGTRTYYADSVKGRFTISRDNSKNTLYLQMNSLRPEDTAVYYCTAQGQWRAAPVAVAAEYEFWGQGTLVTVSS
B20: SD3097 (VHH)
VHH: EVQLLESGGGLVQPGGSLRLSCAASGRTYAMGWFRQAPGKEREFVAAINALGTRTYYADSVKGRFTISRDNSKNTLYLQMNSLRAEDTAVYYCTAQGQWRAAPVAVAAEYEFWGQGTLVTVSS
B21: SD3027 (VHH)
VHH: EVQLLESGGGLVQAGGSLRLSCAASGRTYAMSWFRQAPGKEREFVSAINALGTRTYYADSVKGRFTISRDNSKNTLYLQMNSLRPEDTAVYYCTAQGQWRAAPVAVAAEYEFWGQGTQVTVSS
B22: SD3025 (VHH)
VHH: EVQLLESGGGLVQPGGSLRLSCAASGRTYAMSWFRQAPGKEREFVAHINALGTRTYYADSVKGRFTISRDNSKNTLYLQMNSLRAEDTAVYYCTAQGQWRAAPVAVAAEYEFWGQGTQVTVSS
B23: SD3026 (VHH)
VHH: EVQLLESGGGLVQPGGSLRLSCAASGRTYAMSWFRQAPGKEREFVSAINALGTRTYYADSVKGRFTISRDNSKNTLYLQMNSLRAEDTAVYYCTAQGQWRAAPVAVAAEYEFWGQGTQVTVSS
B24: SD3094 (VHH)
VHH: EVQLLESGGGLVQPGGSLRLSCAASGRTYAMGWFRQAPGKEREFVAHINALGTRTYYADSVKGRFTISRDNSKNTLYLQMNSLRAEDTAVYYCTAQGQWRAAPVAVAAEYEFWGQGTLVTVSS
B25: SD3041 (VHH)
VHH: EVQLVESGGGLVQPGGSLRLSCAASGRTLSIYSMSWFRQAPGKEREFVSAIGWNSGRTYYADSVKGRFTISRDNSKNTLYLQMNSLRAEDTAVYYCAAAKGPLRLSSQADYWGQGTQVTVSS
B26: SD3043 (VHH)
VHH: EVQLVESGGGLVQPGGSLRLSCAASGRTLSIYSMSWFRQAPGKEREFVATIGWNSGRTYYADSVKGRFTISRDNSKNTLYLQMNSLRAEDTAVYYCAAAKGPLRLSSQADYWGQGTQVTVSS
B27: SD3046 (VHH)
VHH: EVQLVESGGGLVQAGGSLRLSCAASGRTLSIYSMSWFRQAPGKEREFVSTIGWNSGRTYYADSVKGRFTISRDNSKNTLYLQMNSLRAEDTAVYYCAAAKGPLRLSSQADYWGQGTQVTVSS
B28: SD3042 (VHH)
VHH: EVQLVESGGGLVQPGGSLRLSCAASGRTLSIYSMSWFRQAPGKEREFVSTIGWNSGRTYYADSVKGRFTISRDNSKNTLYLQMNSLRAEDTAVYYCAAAKGPLRLSSQADYWGQGTQVTVSS
B29: SD3045 (VHH)
VHH: EVQLVESGGGLVQAGGSLRLSCAASGRTLSIYSMSWFRQAPGKEREFVSAIGWNSGRTYYADSVKGRFTISRDNSKNTLYLQMNSLRAEDTAVYYCAAAKGPLRLSSQADYWGQGTQVTVSS

Broadly, the Kd is the concentration at which binding is half-saturated.

One assay addresses HA of H1N1 A/California/07/2009 (influenza A virus). Kind of assay: cell-based or functional assay.
Turning to B1, the VNA titer is above 1000 nM.

For the molecule B2, the VNA titer was above 1000 nM. Same read-out and setting: the value for B3 was above 1000 nM.

The next assay deals with recombinant HA of H3N2 A/Brisbane/10/2007 (influenza A virus). Kind of assay: biolayer interferometry (Octet), steady-state fit, geometric mean.
For the molecule B4, the Kd came out at 1.7 nM.

In the case of B5, the equilibrium dissociation constant (Kd) was 1.8 nM.

For the next assay, the target named is recombinant HA of H7N3 A/NIBRG/60 (A/mallard/NL/12/00) (influenza A virus). The assay is described as above.
As for B4, the Kd was 1.2 nM. Still for that read-out and setting: the value for B5 was 1.4 nM.

The target of a further assay is hemagglutinin (HA) of influenza A/NIBRG/60 (A/mallard/Netherlands/12/00) (H7N3) (influenza A virus …). Kind of assay: cell-based or functional assay.
Regarding B6, the “VNA IC50” value stood at 25 nM. Consider B7, for which the “VNA IC50” value amounted to 10 nM. On the same count and under the same terms, in the case of B8 it was above 1000 nM.

As to B9, the “VNA IC50” value was 10 nM. Still for that read-out and setting: in the case of B10 it was above 1000 nM; in that of B11, 26 nM. The same measure, in the same setting: in the case of B12 it was above 1000 nM; in that of B13, 6 nM; in that of B14, 6 nM.

In the case of B15, the “VNA IC50” value is below 4 nM.

In the case of B16, the “VNA IC50” value is below 4 nM.

B17: the “VNA IC50” value amounted to 5 nM. Still for that read-out and setting: in the case of B18 it was 8 nM. On the same count and under the same terms, the value for B19 was below 4 nM; that for B20 was 6 nM; that for B21 was 5 nM.

Regarding B22, the “VNA IC50” value was determined as 5 nM.

As to B23, the “VNA IC50” value came to 3 nM.

Consider B24, for which the “VNA IC50” value is below 4 nM. Regarding B25, the “VNA IC50” value was above 1000 nM. The same measure, in the same setting: the value for B26 was above 1000 nM; that for B27 was above 1000 nM; that for B28 was above 1000 nM. Same read-out and setting: in the case of B29 it was above 1000 nM.
